Consider one sequence from patent US20050250106.

Results from cells or extracts need not show a direct contact. Negatives hold for the conditions tested.

This series concerns NF-kB p50 (p50/p65 heterodimer). The series can be described thus: EMSA. Conditions: TAR alone does not inhibit p50 binding to DNA probe; protein in an extract; variant of TAR-a-p50 (TAR-NF-kB aptamer transcript). A general note: A gel shift assay detects complexes by their altered migration in electrophoresis.

Turning to “UCUGGUUAGACCAGAUCUGAGCCUGGGAGCUCUCUGGCUAGCUAGGGAACCCACU [HIV-1 TAR control transcript]”, the binding result is reported as “no binding”.
